Reference: patent US4239708A, “P-Phenylene bis[imino(thiocarbonyl)] diphosphoramidic acid esters as anthelmentic agents” (dated 1980)

Assays:
Ostertagia circumcincta = assay: Efficacy test in sheep, O. circumcincta
[1] = system: Trichostrongylus colubriformis; assay: Control of adult Trichostrongylus colubriformis in rabbits
Hymenolepis nana = assay: Mouse/Helminth Evaluation, H. nana; conditions: mice, absence or presence of parasites is criterion
Strongyloides ransomi = assay: Efficacy for the control of Strongyloides ransomi infections in pigs; conditions: for Ave. No. of S. ransomi: control 273
[2] = system: Trichostrongylus colubriformis; assay: Efficacy test in sheep, T. colubriformis
Aspicularis tetraptera = assay: Mouse/Helminth Evaluation, A. tetraptera; conditions: mice, absence or presence of parasites is criterion
Haemonchus contortus = assay: Efficacy test in sheep, H. contortus
Nematospiroides dubius = assay: Mouse/Helminth Evaluation, N. dubius; conditions: mice
Ascaris suum = assay: Efficacy test in pigs, A. suum; conditions: small intestine, 50 mg/kg oral
Oesophagostomum spp. = assay: Efficacy test in pigs, Oesophagostomum spp.; conditions: large intestine, 50 mg/kg oral

Structure (SMILES)	% Efficacy Against O. circumcineta (Ostertagia circumcincta; oral dose 25 mg/kg)	% Efficacy Against O. circumcineta (Ostertagia circumcincta; oral dose 50 mg/kg)	% Efficacy ([1]; single oral dose 25 mg/kg)	% Efficacy ([1]; single oral dose 50 mg/kg)	activity against H. nana (Hymenolepis nana; 0.05% in diet for 7 days)	activity against H. nana (Hymenolepis nana; 50 mg/kg single oral dose)	Efficacy (Strongyloides ransomi; SOD 50 mg/kg)	Ave. No. of S. ransomi (Strongyloides ransomi; SOD 50 mg/kg)	% Efficacy Against T. colubriformis ([2]; oral dose 25 mg/kg)	% Efficacy Against T. colubriformis ([2]; oral dose 50 mg/kg)	activity against A. tetraptera (Aspicularis tetraptera; 0.05% in diet for 7 days)	activity against A. tetraptera (Aspicularis tetraptera; 50 mg/kg single oral dose)	% Efficacy Against H. contortus (Haemonchus contortus; oral dose 25 mg/kg)	% Efficacy Against H. contortus (Haemonchus contortus; oral dose 50 mg/kg)	activity against N. dubius (Nematospiroides dubius; 0.05% in diet for 7 days)	activity against N. dubius (Nematospiroides dubius; 50 mg/kg single oral dose)	further results
CCOP(=O)(NC(=S)Nc1ccc(NC(=S)NP(=O)(OCC)OCC)c(OC)c1)OCC	85.4%	97.8%	70.9%	87.2%	Active	Inactive	100%	0	75.4%	91.5%	Active	Inactive	100%	100%	Inactive	Inactive	% Efficacy Against O. circumcineta (Ostertagia circumcincta; oral dose 12.5 mg/kg): 48.2%; activity against H. nana (Hymenolepis nana; 0.025% in diet for 7 days): Active; activity against H. nana (Hymenolepis nana; 0.1% in diet for 7 days): Active; % Efficacy Against T. colubriformis ([2]; oral dose 12.5 mg/kg): 16.5%; % Efficacy Against H. contortus (Haemonchus contortus; oral dose 12.5 mg/kg): 100%; activity against N. dubius (Nematospiroides dubius; 0.025% in diet for 7 days): Inactive; activity against N. dubius (Nematospiroides dubius; 0.1% in diet for 7 days): Inactive
CCOP(=O)(NC(=S)Nc1ccc(NC(=S)NP(=O)(OCC)OCC)c(Cl)c1)OCC	74%	92.8%	88%	90%	Active	Inactive	96%	10	22.4%	87.1%	Active	Active	99.6%	100%	Inactive	Inactive	A. suum % Efficacy (Ascaris suum): 100%; A. suum Ave. No. of worms retained (Ascaris suum; control 54): 0; Efficacy (Strongyloides ransomi; SOD 25 mg/kg): 25%; Ave. No. of S. ransomi (Strongyloides ransomi; SOD 25 mg/kg): 205; Oesophagostomium spp. % Efficacy (Oesophagostomum spp.): 100%; Oesophagostomium spp. Ave. No. of worms retained (Oesophagostomum spp.; control 43): 0
